PubChem BioAssay AID1259414 – Drosophila RNAi Screening Center – 2018
Test: 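Fly genes that alter Wolbachia amount inside host cells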 (primary screen). Cell system: Drosophila JW18 cells infected with Wolbachia. Knock-down reagent: long dsRNA against Drosophila genes, 0.25 µg dsRNA per well of a 384-well plate. Duration: 5 days. Treatment: cells persistently infected with Wolbachia before knock-down; no added drug. Measured: 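Imaged fluorescence in situ signal for Wolbachia 23S rRNA per DAPI-counted host cell, given as a robust z-score within each plate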. Scale: Wolbachia per cell robust z: higher = more Wolbachia per host cell than the plate typical. Active means: 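Hit when robust z is 1.5 or more, or -1.5 or less, in at least two of three replicates; excludes dsRNAs with several or no targets, genes not expressed in JW18 and well A1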.
In all, the deposit lists about 24,000 reagents; below is an unselected part of those with a known target gene and a result. Over the whole deposit, about 1,210 (5%) are marked active. 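Inactive calls also include excluded dsRNAs with several or no targets, genes unexpressed in JW18, and well A1, regardless of score.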 A number with no mark means an inactive call. The numbers tell different reagents against one gene apart. A plus sign joins genes that one reagent is predicted to hit. No sequences are given here.

predicted target	dsRNA no.	Wolbachia per cell robust z, rep 1	Wolbachia per cell robust z, rep 2	Wolbachia per cell robust z, rep 3
meng	1	-3.59	0.131	0.109
meng	2	-0.0889	-1.64	-0.598
Adgf-C	1	0.346	0.0412	-2.36
Adgf-C	2	0.742	0.372	-2.54
CG3999	1	-4.78	0.197	0.211
CG3999	2	-0.203	-0.0395	-1.34
CG6244	1	-0.246	0.236	-1.43
ninaA	1	-6.49	-9.83	0.719
Trpm	1	-0.522	1.13	0.017
Trpm	2	-0.539	0.0227	0.334
Trpm	3	-0.0818	-1.35	0.155
Trpm	4	0.715	-0.323	-0.664
CG31729	1	0.557	0.757	1.14
CG31729	2	-0.728	1.03	0.276
CG31729	3	0.146	-0.128	-2.32
CG42789	1	0.356	-0.0634	1.04
CG42659	1	-1.4	-2.16	-1.58
vig2	1	1.16	0.23	0.905
vig2	2	-5.99	0.00591	-0.0207
CG9662	1	0.386	0.214	-0.0572
VAChT	1	-0.624	-0.531	-0.515
VAChT	2	0.0694	0.062	-0.225
VAChT	3	-0.155	-0.608	-1.01
CG3632	1	-1.91 (active)	-10.1	0.516
CG5758	1	-1.96	-0.455	-0.145
CG5758	2	-0.296	-0.0699	0.355
CG5758	3	0.519	-0.25	0.0571
CycK	1	0.405	0.48	-2.92
Or7a	1	0.986	0.437	-0.0869
Hen1	1	-1.06	0.623	-2.5
Hen1	2	-0.335	-3.18	0.507
Hen1	3	-7.86	0.671	0.157
Cul1	1	0.363	-2.83	3.67
Cul1	2	1.64 (active)	-0.983	1.94
CR42545	1	-0.48	-1.21	-0.0727
CG31360	1	-0.702	-0.671	-0.06
lt	1	-0.703	-1.04	-0.587
CG6688	1	0.963	-1.43	1.06
CG6688	2	-0.158	-0.885	-0.726

The list goes on (9 carried over from the part before).
predicted target	dsRNA no.	Wolbachia per cell robust z, rep 1	Wolbachia per cell robust z, rep 2	Wolbachia per cell robust z, rep 3
Hen1	2	-0.335	-3.18	0.507
Hen1	3	-7.86	0.671	0.157
Cul1	1	0.363	-2.83	3.67
Cul1	2	1.64 (active)	-0.983	1.94
CR42545	1	-0.48	-1.21	-0.0727
CG31360	1	-0.702	-0.671	-0.06
lt	1	-0.703	-1.04	-0.587
CG6688	1	0.963	-1.43	1.06
CG6688	2	-0.158	-0.885	-0.726
CG42322	1	-0.647	-0.417	-0.837
CG42322	2	-0.544	-0.286	-0.985
CG42322	3	-0.416	-0.31	0.169
l(2)gl	1	-1.84	-0.00291	0.732
l(2)gl	2	-1.47	-1.76	-1.4
CG14111	1	-1.18	0.991	0.377
CG14111	2	0.652	0.0949	-1.04
lncRNA:CR32657	1	-0.111	-1.08	-1.33
lncRNA:CR32657	2	-2.44	-0.474	-0.0814
ball	1	-0.119	1.42	1.46
ball	2	-0.161	0.882	-0.227
Rab9	1	0.624	-3.04	-0.556
sta	1	0.209	1.41	1.18
sta	2	1.54 (active)	6.64	6.59
Yp3	1	-0.825	1.22	0.676
Yp3	2	0.317	1.19	-0.185
CG33679	1	-0.771	-6.15	-2.11
CR33222 + CR11386	1	0.4	-0.157	-2.1
CR33222 + CR11386	2	0.615	0.0356	0.595
CG33346	1	-0.196	-0.627	-1.42
SF1	1	0.46	0.938	-5.63
CG6345	1	0.909	-0.637	-0.116
SmydA-9	1	-1.47	0.254	-1.28
TwdlK	1	-0.677	-0.163	-0.629
OS9	1	0.144	-0.342	0.427
OS9	2	-0.693	-1.17	-0.784
mRpL4	1	-0.369	-0.329	-1.48
CG31419	1	0.312	0.433	0.952
CG31419	2	-1.02	0.135	-1.07
